From paper PMC2946308, “Sialic acid transport and catabolism are cooperatively regulated by SiaR and CRP in nontypeable Haemophilus influenzae” (BMC Microbiology, 2010)

How the values were obtained:
[1] = target: CRP (UniProt P29281); test: EMSA; settings: 100 uM cAMP, 1 uM CRP; 150 mM KCl, 0.1 mM DTT, 0.1 mM EDTA, 10 mM Tris pH 7.4, 15 nM probe, room temperature 20 min; 6% gel, 0.5x TBE; recombinant protein; residues 1-224; protein details: C-terminal His tag (pET-24(+), pJJ276); label: none (SYBR Green stain); probe letters rebuilt from the primers and the genome
[2] = tested on: SiaR; test: EMSA; settings: 150 mM KCl, 0.1 mM DTT, 0.1 mM EDTA, 10 mM Tris pH 7.4, 15 nM probe, room temperature 20 min, 6% gel, 0.5x TBE, recombinant protein, label: none (SYBR Green stain), probe letters rebuilt from the primers and the genome

Measured: binding result

ACACCCCTCATTTAAATCTGAATAAATCACTTTAAAATTAATTTAATCCACATAAAACAATCTTTTATAAATTGTAATATGCTTATATTTTCATCATTTAACATTATTATATGAAAAAGAAATGCCATTTTAAAGAATATTTTTGAAGTGTTTTTTCACAAATGTGATCAACTTCTCATTTTTGAAATAAAACTCGTAAAACTATTTTAAATTTGTTTTTTTACTCTTAGAATTGCTCTCGAATCCTATTTTGGGGG (double strand) [nan-siaPT intergenic region probe]
binds: [1] | [2]; 100 uM GlcN-6P, two-fold SiaR dilutions, slightly increased affinity | [2]; no GlcN-6P, 1 uM SiaR

Construct, isoform or probe ends are uncertain for at least one entry.
